System: patient who had loss of taste and smell from COVID-19
Details: 80 μg theophylline nasal spray once per day, 3 months

## Cn1c(=O)c2[nH]cnc2n(C)c1=O [Theophylline]
  Side effects: No side effects were reported

Source: patent US20240398816A1, “Gel Treatment for Loss of Taste and Smell” (Cyrano Therapeutics, Inc., priority 2021, published 2024)
